# PubChem BioAssay AID504423 (Broad Institute, 2011)
# The entries are a selection whose mix differs from that of the whole data set. Calls of active or inactive are those of the source.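 How the source made its calls: active means highest replicate inhibition at or above 60% at 9 µM, even if other replicates fall short; inactive means all replicates below 60% inhibition.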
# Test system: Kaposi's sarcoma herpesvirus LANA C-terminal domain (residues 932-1162) DNA binding
# Experiment: blockers of LANA C-terminal domain DNA interaction – biochemical, fluorescence polarization, FAM-LBS DNA, MBP-C-LANA, single point, primary screen (AID 504423);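 further: 0% = neutral control wells and 100% = 4 µM acridine orange control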
# Conditions: at 9 µM, hits give high values
row,Compound,inhibition
1,N#Cc1ccc(C(=O)NCC2(N3CCCCC3)CCCCC2)cc1,inactive: -0.458%
2,CC(C)(C)OC(=O)N1CCC(N(C(=O)c2ccccc2)c2ccc(Cl)cc2)CC1,inactive: 1.19%
3,CN(C)C1(CNC(=O)c2cccc(C#N)c2)CCCCC1,inactive: 2.66%
4,CCCN1CCC(Nc2cc(OC)cc(OC)c2)CC1,inactive: 39.1%
5,Cc1cc(N(CCCl)CCCl)ccc1C=O,inactive: -0.506%
6,c1ccc(CN2CCC(Nc3ccccc3)CC2)cc1,inactive: 1.42%
7,COc1ccc(C(=O)NCC2(N3CCOCC3)CCCCC2)cc1OC,inactive: 0.667%
8,COc1cc(C(=O)NCC2(N3CCOCC3)CCCCC2)cc(OC)c1C,inactive: 2.21%
9,O=C(NCC1(N2CCOCC2)CCCCC1)c1cc(Br)ccc1Cl,inactive: -0.213%
10,O=C(OC1CN2CCC1CC2)C1c2ccccc2C=Cc2ccccc21 (centres undefined),inactive: 2.97%
11,CCOC(=O)N1CCC(Nc2ccc(C)cc2)CC1,inactive: -0.399%
12,N/C(=N\O)c1c(N)no[n+]1[O-],inactive: -0.635%
13,O=C(O)C1(Nc2ccccc2)CCN(Cc2ccccc2)CC1,inactive: -0.334%
14,CC(C)(C)OC(=O)N1CCC(Nc2ccccc2)CC1,inactive: 0.607%
15,CCCOc1ccc(C(=O)NCC2(N(C)C)CCCCC2)cc1,inactive: -0.447%
16,CN1CCC(Nc2ccc(F)c(Cl)c2)CC1,inactive: -1.84%
17,CCOc1ncccc1C(=O)NCC1(N2CCOCC2)CCCCC1,inactive: 1.09%
18,CN1CCC(Nc2ccc(Cl)cc2)CC1,inactive: 2.46%
19,COc1cccc(C(=O)N(c2cc(C)cc(C)c2)C2CCN(C(=O)OC(C)(C)C)CC2)c1,inactive: 0.719%
20,COc1cc(OC)cc(C(=O)NCC2(N3CCOCC3)CCCCC2)c1,inactive: -1.13%
21,CCC(CO)(C(=O)OC1CN2CCC1CC2)c1ccccc1 (centres undefined),inactive: -0.925%
22,Fc1ccccc1NC1CCN(Cc2ccccc2)CC1,inactive: 1.89%
23,Cc1ccc(C(=O)NCC2(N3CCCCC3)CCCCC2)o1,inactive: -2.51%
24,Cc1ccc(NC2(C#N)CCN(Cc3ccccc3)CC2)cc1,inactive: 1.98%
25,CC(=O)N(c1ccccc1)C1CCNCC1,inactive: -0.425%

row,Compound,inhibition
1,COc1cc(OC)cc(C(=O)NCC2(N3CCCCC3)CCCCC2)c1,inactive: 0.099%
2,CN(C)c1ccc(C(=O)NCC2(N3CCCCC3)CCCCC2)cc1,inactive: -0.153%
3,Cn1c(=O)[nH]cc(N(CCCl)CCCl)c1=O,inactive: 1.97%
4,O=C(NCC1(N2CCCCC2)CCCCC1)c1ccco1,inactive: -0.116%
5,CCN1CCC(Nc2cccc(F)c2)CC1,inactive: 1.72%
6,Cc1ccccc1NC1(C#N)CCN(Cc2ccccc2)CC1,inactive: 3.5%
7,CCOC(=O)N1CCC(Nc2ccc(F)cc2)CC1,inactive: 0.346%
8,COc1ccc(NC2CCN(CCc3ccccc3)CC2)c(OC)c1,inactive: 1.24%
9,CCCCOc1ccc(C(=O)NCC2(N3CCOCC3)CCCCC2)cc1,inactive: 1.03%
10,O=P1(N(CCCl)CCCl)SCCCS1,inactive: 0.0649%
11,O=C(NCC1(N2CCCCC2)CCCCC1)c1ccc(F)cc1,inactive: -1.32%
12,O=C1CCN(Cc2ccccc2)CC1,inactive: -2.26%
13,CCOc1ccc(C)cc1CN(CCCl)CCCl,inactive: -0.368%
14,CCOC(=O)N1CCC(Nc2cccc(C)c2)CC1,inactive: -1.32%
15,COc1cc(C(=O)NCC2(N(C)C)CCCCC2)ccc1OC(F)F,inactive: -0.0994%
16,Cc1cccc(NC2(C#N)CCN(Cc3ccccc3)CC2)c1,inactive: -0.844%
17,CSc1ccccc1C(=O)NCC1(N2CCCCC2)CCCCC1,inactive: -0.29%
18,COc1ccc(C(=O)NCC2(N3CCCCC3)CCCCC2)c(OC)c1OC,inactive: 0.414%
19,CC(C)(C)OC(=O)N1CCC(N(C(=O)c2ccccc2)c2ccc(F)cc2)CC1,inactive: 2.95%
20,COc1ccc(C(=O)NCC2(N3CCCCC3)CCCCC2)cc1,inactive: -0.0421%
21,O=C(NCC1(N2CCCCC2)CCCCC1)c1cccs1,inactive: -0.369%
22,O=C(NCC1(N2CCCCC2)CCCCC1)c1ccc(=O)[nH]c1,inactive: 0.709%
23,COc1ccc(Cl)cc1C(=O)NCC1(N2CCOCC2)CCCCC1,inactive: 1.68%
24,N#CC1(Nc2ccccc2)CCN(Cc2ccccc2)CC1,inactive: -3.93%
25,O=C(NCC1(N2CCCCC2)CCCCC1)c1ccc(Cl)s1,inactive: -2.36%

row,Compound,inhibition
1,O=C(OC1CN2CCC1CC2)C1c2ccccc2Oc2ccccc21 (centres undefined),inactive: 5.06%
2,CCOC(=O)N1CCC(Nc2ccc(OC)cc2)CC1,inactive: 1.07%
3,Cc1cc(C)cc(N(C(=O)c2ccccc2)C2CCN(C(=O)OC(C)(C)C)CC2)c1,inactive: 0.255%
4,O=C(NCC1(N2CCCCC2)CCCCC1)c1ccc(Cl)nc1,inactive: -1.33%
5,O=C(NCC1(N2CCOCC2)CCCCC1)c1cc2ccccc2o1,inactive: -0.816%
6,O=C(NCC1(N2CCOCC2)CCCCC1)c1cc(F)c(F)cc1Cl,inactive: 0.714%
7,COc1cc(OC)c(C(=O)NCC2(N(C)C)CCCCC2)cc1OC,inactive: 1.18%
8,CC(C)c1ccc(NC2CCN(C(=O)OC(C)(C)C)CC2)cc1,inactive: 1.17%
9,CN(C)c1cccc(C(=O)NCC2(N3CCCCC3)CCCCC2)c1,inactive: -0.995%
10,COc1ccc(CN(CCCl)CCCl)cc1Cl,inactive: -0.628%
11,CCCOc1ccc(C(=O)NCC2(N(C)C)CCCCC2)cc1OC,inactive: 0.233%
12,CN1CCC(Nc2cccc(F)c2)CC1,inactive: 0.735%
13,O=C(NCC1(N2CCCCC2)CCCCC1)c1cncc(Br)c1,inactive: -0.231%
14,N#CC1(Nc2ccccc2)CCN(CCc2ccccc2)CC1,inactive: -1.1%
15,CCN1CCC(Nc2ccc(Cl)cc2)CC1,inactive: -1.61%
16,CSc1ccc(C(=O)NCC2(N3CCOCC3)CCCCC2)cc1,inactive: 0.225%
17,O=C(NCC1(N2CCCCC2)CCCCC1)c1cccc([N+](=O)[O-])c1,inactive: 0.276%
18,O=C(NCC1(N2CCCCC2)CCCCC1)c1ccc(OC(F)F)cc1,inactive: -3.12%
19,O=C(NCC1(N2CCOCC2)CCCCC1)c1cc(=O)[nH]c2ccccc12,inactive: -0.616%
20,COc1cc(C(=O)NCC2(N3CCCCC3)CCCCC2)ccc1OC(F)F,inactive: -1.16%
21,COc1ccc(NC2CCN(C(=O)OC(C)(C)C)CC2)cc1,inactive: -1.36%
22,CC(C)c1ccc(C(=O)NCC2(N3CCOCC3)CCCCC2)cc1,inactive: -0.131%
23,CN1CCN(CCOC(=O)C(O)(c2ccccc2)c2ccccc2)CC1,inactive: 1.36%
24,O=C(NCC1(N2CCCCC2)CCCCC1)c1cccc(C(F)(F)F)c1,inactive: 0.267%
